Reference: publication PMC8781304, “Arene-Ruthenium(II) Complexes with Carbothiamidopyrazoles as a Potential Alternative for Antibiotic Resistance in Human” (Molecules, 2022)

Tested on: Supercoiled plasmid pUC57 DNA
Test: Cleavage of pUC57 DNA, agarose gel electrophoresis
Type: biochemical
Protocol: DNA supercoiling plays a key role in gene expression and genome organization. The agarose gel electrophoresis assay was used to check whether the tested complexes 3a–3c are able to cleave DNA. Supercoiled plasmid pUC57 DNA (4634 bp); Thermo Scientific, ABO Sp. z o.o., Gdansk, Poland), was incubated with tested compounds (100, 200 and 300 µM). Next, loading buffer (1 μL) containing […] bromophenol blue, 0.25% xylene cyanol and 30% glycerol was added to allow the samples to be loaded into 1% w/v agarose gel. Electrophoresis was performed at 75 V in Tris-acetate- EDTA (TAE) buffer. The gel was stained using Midori green advance DNA stain (Genetics, ABO Sp. z o.o., Gdansk, Poland), and visualised under UV light with the BioRad Gel Doc 2000 system using LABWORK software (Hercules, California, USA). All experiments were carried out in triplicate under the same conditions.

SMILES: Cc1cc(C)[n+]2n1C(N)=[S+][Ru-]2[Cl].Cc1ccc(C(C)C)cc1.F[P-](F)(F)(F)(F)F [Compound 3a]
- Concentration causing DNA sedimentation: ≥ 200 µM
